# Ends that are not written are not given here.
# Assay: peptide made by a vendor (Fmoc solid-phase peptide synthesis)
# Details: whole synthesis, HPLC and mass spectrometer analysis
sequence,measurement,value
FDTGAFDPDWPAC,purity (crude or final not stated),>70%

# — patent US6444787B1 (Research Development Institute, Inc., priority 1997, dated 2002)
